Compound potency records, mixed from different reports. Data source: NIAID ChemDB in PubChem.

Shared fields: growth or infection tests; agent: Human cytomegalovirus; endpoint: EC50

ECn: concentration that inhibits the pathogen or its effect by n%.

compound,cell line,strain,read by,value
C[C@]12CC[C@@H]3c4ccc(O)cc4CC[C@H]3[C@@H]1CC[C@@H]2O,HEL,TOWNE,virus yield,>20 µM
N#Cc1cn([C@@H]2O[C@H](CO)[C@@H](O)[C@@H]2N=[N+]=[N-])c2ncnc(N)c12,HFF,TOWNE,virus yield,<37 µM
O=C(NCCc1c[nH]c2ccccc12)C1=Cc2ccncc2CC1,HFF,D-10 C4,plaque count,0.6 µM
CC(C)(CCl)C(=O)Nc1ccc(NS(=O)(=O)c2cccc3ccccc23)cc1,,,,0.087 µM
Nc1nc(NC2CC2)c2ncn(C=C3CC3CO)c2n1,HFF,TOWNE,virus yield,0.4 µM
Cc1ccc(Cn2c(=O)ccn(CC#N)c2=O)cc1C,,AD169,,117 µM
CC(C)(C)C(=O)OCOC(=O)CN(CC(=O)OCOC(=O)C(C)(C)C)P(=O)(OC[C@H]1O[C@@H](n2cc(/C=C/Br)c(=O)[nH]c2=O)C[C@@H]1O)Oc1ccccc1,HEL,AD169,,>20 µM
NC(=O)c1cn([C@@H]2O[C@H](CO)[C@@H](O)[C@@H]2O)c2ncnc(N)c12,HFF,TOWNE,virus yield,<1 µM
Nc1ncnc2c1ncn2[C@@H]1C[C@H](c2ccccc2)[C@@H](O)[C@H]1O,HEL,DAVIS (100 PFU),cytopathic effect,90 µg/mL
Cc1cc(C)cc(Cn2c(=O)ccn(CCc3ccccc3)c2=O)c1,,AD169,,22 µM
Nc1ncnc2c1c(Br)cn2[C@@H]1O[C@H](CO)[C@@H](O)[C@H]1O,HFF,TOWNE,virus yield,<3.5 µM
Nc1ccnc2c1ncn2C1CC(O)C(CO)O1,HEL,DAVIS,,>100 µM
C(/C=C/c1ccccc1)=C\c1ccccc1,HEL,TOWNE,virus yield,>50 µM
COc1cc(Cn2c(=O)ccn(CC#N)c2=O)cc(OC)c1OC,,AD169,,>151 µM
COC(=O)CN(CC(=O)OC)P(=O)(OC[C@H]1O[C@@H](n2cc(/C=C/Br)c(=O)[nH]c2=O)C[C@@H]1O)Oc1ccccc1,HEL,DAVIS,,>100 µM
N#Cc1cn([C@@H]2O[C@H](CO)[C@@H](O)[C@@H]2Cl)c2ncnc(N)c12,HFF,TOWNE,virus yield,<75 µM
Nc1ncnc2c1ncn2[C@@H]1C=C[C@@H](O)[C@H]1O,HEL,DAVIS (100 PFU),cytopathic effect,25.75 µg/mL
N#CCn1ccc(=O)n(Cc2ccc3ccccc3c2)c1=O,,AD169,,>69 µM
N[C@H](c1ccccc1)[C@H](N)c1ccccc1,HEL,TOWNE,virus yield,>50 µM
CC(C)Oc1ccccc1CNC(=O)Nc1ccc2cnccc2n1,,,,0.01–0.1 µg/mL
Nc1nccc2c1ncn2C(C=O)OC(C=O)CO,HEL,DAVIS (100 PFU),cytopathic effect,1.1 µg/mL
c1ccc([C@H]2O[C@@H]2c2ccccc2)cc1,HEL,TOWNE,virus yield,>50 µM
Cc1cccc2c1OP(=O)(OC[C@H]1O[C@@H](n3cc(/C=C/Br)c(=O)[nH]c3=O)C[C@@H]1OC(=O)[C@H](N)C(C)C)OC2,HELF,AD169,plaque count,>128 µg/mL
OC[C@@H]1O[C@H](n2c(NC3CCCC3)nc3cc(Cl)c(Cl)cc32)C[C@H]1O,MRC-5,AD169,hybridisation,0.1 µM
CCC(=O)O[C@H]1C[C@H](n2cc(/C=C/Br)c(=O)[nH]c2=O)O[C@@H]1COP1(=O)OCc2cccc(C)c2O1,HELF,AD169,plaque count,>64 µg/mL
Nc1nccc2c1ncn2[C@@H]1C=C(CO)[C@@H](O)[C@H]1O,HEL,DAVIS (100 PFU),cytopathic effect,0.18 µg/mL
N#Cc1cn([C@@H]2O[C@H](CO)[C@@H](O)[C@@H]2I)c2ncnc(N)c12,HFF,TOWNE,virus yield,<20 µM
Cc1cc(C)c(Nc2cc(S(=O)(=O)O)c(N)c3c2C(=O)c2ccccc2C3=O)c(C)c1,MRC-5,,luciferase,6.3 µM
OC[C@@H]1O[C@H](n2cnc3cc(Cl)c(Cl)cc32)C[C@H]1O,MRC-5,AD169,hybridisation,41 µM
CN(C)S(=O)(=O)Nc1ccc(S(=O)(=O)Nc2ccc(NC(=O)C(C)(C)C)cc2)cc1,,,,2.6 µM
Cc1ccccc1Cn1c(=O)ccn(CC#N)c1=O,,AD169,,78 µM
CC(C)COC(=O)C(O)Cn1cnc2c(N)ncnc21,HEL,DAVIS (100 PFU),cytopathic effect,16 µg/mL
OC[C@H]1O[C@@H](n2cnc3c(Cl)nccc32)C[C@@H]1O,HEL,DAVIS,,>100 µM
O=c1[nH]c(=O)n([C@H]2C[C@H](O)[C@@H](COP3(=O)OCc4ccccc4O3)O2)cc1/C=C/Br,HELF,AD169,plaque count,>128 µg/mL
CC/C(=C(/CC)c1ccc(O)cc1)c1ccc(O)cc1,HEL,TOWNE,virus yield,>30 µM
CC[C@H]1C[C@@H](n2cnc3c(N)ncnc32)[C@H](O)[C@@H]1O,HEL,AD-169 (100 PFU),cytopathic effect,>100 µg/mL
CC(C)(C)c1cccc2c1OP(=O)(OC[C@H]1O[C@@H](n3cc(/C=C/Br)c(=O)[nH]c3=O)C[C@@H]1O)OC2,HELF,AD169,plaque count,>128 µg/mL

The last 2 rows once more:

compound	cell line	strain	read by	value
CC[C@H]1C[C@@H](n2cnc3c(N)ncnc32)[C@H](O)[C@@H]1O	HEL	AD-169 (100 PFU)	cytopathic effect	>100 µg/mL
CC(C)(C)c1cccc2c1OP(=O)(OC[C@H]1O[C@@H](n3cc(/C=C/Br)c(=O)[nH]c3=O)C[C@@H]1O)OC2	HELF	AD169	plaque count	>128 µg/mL

Two numbers with a dash give a range or band. Neighbouring rows are from separate reports. An empty or dashed field is not shown.